Anti-infective test results gathered from many reports (values: NIAID ChemDB through PubChem).

Shared fields: tests in culture; species: Hepatitis B virus; method: hybridisation; read-out: EC50

ECn: concentration that inhibits the pathogen or its effect by n%.

Nc1ncnc2c1nc(I)n2[C@H]1CC[C@@H](CO)C1 ; cell line: HepG2 2.2.15 ; value: 1.3 µM
COC(=O)[C@H](C)NP(=O)(OC[C@H]1C=C[C@@H](n2ccc3c(N)ncnc32)C1)Oc1ccccc1 ; cell line: HepG2 2.2.15 ; value: 0.09 µM
CCc1c(Sc2cc(Cl)ccc2C)[nH]c(=O)[nH]c1=O ; cell line: HepG2 2.2.15 ; value: 38 µM
COC(=O)[C@H](Cc1ccccc1)NP(=O)(OC[C@@H]1C=C[C@H](n2ccc3c(N)ncnc32)C1)Oc1ccccc1 ; cell line: HepG2 2.2.15 ; value: 20 µM
CCc1c(Sc2ccc(C)cc2)[nH]c(=O)[nH]c1=O ; cell line: HepG2 2.2.15 ; value: 52 µM
COC(=O)[C@H](C)NP(=O)(OC[C@@H]1C=C[C@H](n2ccc3c(N)ncnc32)C1)Oc1ccccc1 ; cell line: HepG2 2.2.15 ; value: 54 µM
Cc1nc2c(N)ncnc2n1[C@H]1CC[C@@H](CO)C1 ; cell line: HepG2 2.2.15 ; value: 6 µM
Nc1nc2c(ncn2/C=C2/CC2(CO)CO)c(=O)[nH]1 ; cell line: 2.2.15 ; value: >10 µM
Nc1ncnc2c1nc(Cl)n2[C@H]1CC[C@@H](CO)C1 ; cell line: HepG2 2.2.15 ; value: 12 µM
CCc1c(Sc2cc(C)cc(C)c2)[nH]c(=O)[nH]c1=O ; cell line: HepG2 2.2.15 ; value: >100 µM
Nc1ncnc2c1ccn2[C@@H]1C=C[C@H](CO)C1 ; cell line: HepG2 2.2.15 ; value: 2 µM
Nc1nc(F)c2ncn(/C=C3\CC3(CO)CO)c2n1 ; cell line: 2.2.15 ; value: >20 µM
Nc1ncnc2c1ncn2[C@H]1CC[C@@H](CO)C1 ; cell line: HepG2 2.2.15 ; value: 33 µM
C[C@H](NP(=O)(OC[C@@H]1C=C[C@H](n2ccc3c(N)ncnc32)C1)Oc1ccccc1)C(=O)OCc1ccccc1 ; cell line: HepG2 2.2.15 ; value: 11 µM
COC(=O)C1=C(C)NC(c2ncc(F)cc2F)=NC1c1ccc(F)cc1Cl ; cell line: HepAD38 ; value: 0.124 µM

Repeating the final 2 entries:

smiles	cell line	value
C[C@H](NP(=O)(OC[C@@H]1C=C[C@H](n2ccc3c(N)ncnc32)C1)Oc1ccccc1)C(=O)OCc1ccccc1	HepG2 2.2.15	11 µM
COC(=O)C1=C(C)NC(c2ncc(F)cc2F)=NC1c1ccc(F)cc1Cl	HepAD38	0.124 µM

Conditions beyond the fields shown may differ between rows.